Patent US6925388B1, “Heterocyclic nonnucleoside inhibitors of reverse transcriptase” (Parker Hughes Institute, priority 1998, dated 2005)

What follows are compounds tested on HIV-1 strain HTLVIIIB (assay: p24 enzyme immunoassay of HIV replication in HTLVIIIB-infected peripheral blood mononuclear cells). Settings: Table 4; ratio of fifty percent cytotoxic concentration to IC50.
Type: cell-based
Procedure: The HIV-1 strain HTLVIIIB (kindly provided by Dr. Neal T. Wetherall, VIROMED Laboratories, Inc.), was propagated in CCRF-CEM cells, and used in in vitro assays of the anti-HIV-1 activity of the synthesized novel derivatives. Cell-free supernatants of HTLVIIIB-infected CCRF-CEM cells were harvested, dispensed into 1 ml aliquots, and frozen at −70° C.
The incubated cells were then exposed to HIV-1 at a multiplicity of infection (MOI) of 0.1 during a one-hour adsorption period at 37° C. in a humidified 5% CO2 atmosphere. […] Aliquots of culture supernatants were removed from the wells on the 7th day after infection for p24 antigen assays. […] Ag.
The applied p24 enzyme immunoassay (EIA) was the unmodified kinetic assay commercially available from Coulter Corporation/Immunotech, Inc. (Westbrooke, Me.). In the assay, a murine monoclonal antibody against HIV core protein is coated onto microwell strips. Antigen (HIV core protein) present in the test culture supernatant samples binds the antibody and the bound antibody-antigen complex is quantitated. Percent viral inhibition was calculated by comparing the p24 values from the test substance-treated infected cells with p24 values from untreated infected cells (i.e., virus controls).

Row | Structure (SMILES) | S.I.
1 | CSCSc1nc(Cc2ccccc2)c(C(C)C)c(=O)[nH]1 [Compound 3c, 5-isopropyl-2-[(methylthiomethyl)thio]-benzyl-pyrimidin-4-1H-one] | >100,000
2 | CCc1c(Cc2ccccc2)nc(SCSC)[nH]c1=O [Compound 3b, 5-ethyl-2-[(methylthiomethyl)thio]-6-benzyl-pyrimidin-4-1H-one] | >125
3 | Cc1cn([C@H]2C[C@H](N=[N+]=[N-])[C@@H](CO)O2)c(=O)[nH]c1=O [AZT, reference compound] | 1250
4 | CSCSc1nc(Cc2ccccc2)c(C)c(=O)[nH]1 [Compound 3a, 5-methyl-2-[(methylthiomethyl)thio]-6-benzyl-pyrimidin-4-1H-one] | >22

Same assay, conditions: Table 5; IC50[MTA]/IC50[p24]

Row | Structure (SMILES) | S.I.
5 | COc1ccc(OC)c(CCNC(=S)Nc2ccc(Br)cn2)c1 [Compound I-4, N-[2-(2,5-dimethoxyphenylethyl)]-N′-[2-(5-bromopyridyl)]-thiourea] | >10^5
6 | S=C(NCCc1ccccn1)Nc1ccccn1 [Compound I-1, N-[2-(2-pyridylethyl)]-N′-[2-(pyridyl)]-thiourea] | >435
7 | S=C(NCCc1ccccn1)Nc1ccc(Br)cn1 [Trovirdine, reference compound] | >10^4
8 | S=C(NCCN1CCCCC1)Nc1ccc(Br)cn1 [Compound I-3, N-[2-(1-piperidinoethyl)]-N′-[2-(5-bromopyridyl)]-thiourea] | >10^5
9 | Cc1cn([C@H]2C[C@H](N=[N+]=[N-])[C@@H](CO)O2)c(=O)[nH]c1=O [AZT, reference compound] | 6250
